Experimental data taken from article PMC5467316, “Antiviral Activity of Fridericia formosa (Bureau) L. G. Lohmann (Bignoniaceae) Extracts and Constituents” (Journal of Tropical Medicine, 2017).

Legend:
[1] = system: dengue virus type 2 (DENV-2); format: cell-based; details: selectivity index, CC50 over EC50
[2] = system: human herpes virus 1 (HSV-1); format: cell-based; details: selectivity index, CC50 over EC50

Structure (SMILES) | SI (DENV-2) [1] | SI (HSV-1) [2]
O=c1c2cc(O)c(O)cc2oc2cc(O)c([C@@H]3O[C@H](CO)[C@@H](O)[C@H](O)[C@H]3O)c(O)c12 [Mangiferin (1), 2-β-D-Glucopyranosyl-1,3,6,7-tetrahydroxy-9H-xanthen-9-one] | >1.9 | >1.9
O=c1cc(-c2ccccc2)oc2cc(O)cc(O)c12 [Chrysin (4), 5,7-Dihydroxy-2-phenyl-4H-1-benzopyran-4-one] | – | >3.4
